From patent EP2632470B1 (priority 2010, dated 2012)
Counter-ions that a name gives are not always drawn.

Test: not given
Conditions: source (a) NIST Standard Reference Database 46; cited from earlier work

| SMILES | Iron Affinity, log K1 Fe^2+, pH = 7.4 |
| --- | --- |
| O=C(O)CN1CCCN(CC(=O)O)CCN(CC(=O)O)CCCN(CC(=O)O)CC1 [1,4,8,11-Tetraazacyclotetradecane-N,N',N",N'''-tetraacetic acid] | 9.9 (a) |
| S=C(N=Nc1ccccc1)NNc1ccccc1 [1,5-Diphenyl-1,2,4,5-tetraazapent-1-en-3-thione] | 6.5 (a) |
| Oc1ccc(N=Nc2nccs2)c(O)c1 [4-(2-thiazolylazo)-resorcinol] | 3.2 (a) |

Same assay, conditions: source (b) IUPAC Stability Constant Database; cited from earlier work

| SMILES | Iron Affinity, log K1 Fe^2+, pH = 7.4 |
| --- | --- |
| Oc1c(Cl)cc(Cl)c2cccnc12 [5,7-dichloro-8-hydroxyquinoline] | 7.2 (b) |
| Oc1c(I)cc(Cl)c2cccnc12 [5-Chloro-8-hydroxy-7-iodoquinoline] | 7.0 (b) |

Test: Iron affinity, stepwise association constant log K1
Format: physicochemical
Conditions: (c) interpolated from correlation between Zn^2+ and Fe^2+ data

| SMILES | Iron Affinity, log K1 Fe^2+, pH = 7.4 |
| --- | --- |
| Oc1ccc2ccccc2c1N=Nc1nccs1 [1-(2-Thiazoylazo)-2-naphthol] | 6.6 (c) |
| c1ccc(-c2cccc(-c3ccccn3)n2)nc1 [2,2':6',2"-terpyridine] | 5.0 (c) |
| Cc1ccc2ccc3ccc(C)nc3c2n1 [2,9-dimethyl-1,10-phenanthroline] | 3.3 (c) |
| Cc1c(O)c(=O)ccn1C [3-Hydroxy-1,2-dimethyl-4(1H)-pyridone] | 3.9 (c) |
| N[C@@H](COP(=O)(O)O)C(=O)O [L-2-Amino-3-phosphopropanoic acid] | 2.3 (c) |
| O=C(O)CN(CCO)CCO [N,N-Bis(2-hydroxyethyl)glycine (Bicine), N,N-Bis(2-hydroxyethyl)glycine] | 3.6 (c) |
| NCCC(=O)N[C@@H](Cc1c[nH]cn1)C(=O)O [beta-Alanyl-L-histidine (L-Carnosine), beta-Alanyl-L-histidine] | 1.3 (c) |
| O=c1cc(CO)occ1O [kojic acid] | 3.7 (c) |

Same assay, conditions: (d) interpolated from correlation between Fe^3+ and Fe^2+ data

| SMILES | Iron Affinity, log K1 Fe^2+, pH = 7.4 |
| --- | --- |
| CCCCCCCCOc1cccc(=O)n1O [HP-101, N-Hydroxy-6-octyloxypyridine-2(1H)one, ethanolamine salt] | 5.4 (d) |

Same assay, conditions: (e) interpolated from correlation between Cu^2+ and Fe^2+ data

| SMILES | Iron Affinity, log K1 Fe^2+, pH = 7.4 |
| --- | --- |
| C1CNCCNCCNCCNCCNCCN1 [1,4,7,10,13,16-Hexaazacyclooctadecane] | 13.3 (e) |
